A mixed list of measured activities; the numbers were collected in NIAID ChemDB.

Shared fields: tests in culture; organism: HIV-1

a–b is a range or a potency band. Rows are shuffled and stem from different studies. An empty or dashed field is not shown. ECn is the concentration giving n% inhibition of infection, replication or growth.

{"compound": "C/C=C/CSc1cc(NC(=S)c2ccsc2C)ccc1Cl", "cell line": "CEM + CEM-SS", "mutations": "RT-D67N K70R Y181C T215Y K219Q", "read by": "p24", "strain": "4XAZT+Y181C (RT D67N K70R Y181C T215Y K219Q)", "read-out": "EC50", "value": "0.2 µM"}
{"compound": "CO/N=C/c1cc(NC(=S)c2ccoc2C)ccc1OC", "cell line": "CEM", "mutations": "RT-K103N", "read by": "syncytia", "read-out": "EC50", "value": "3.9 µM"}
{"compound": "C[C@H]1CN(C2CC2)C(=O)C2=C(O)C3C(=O)N4Cc5ccc(F)cc5OCCCCCN(C)C(=O)C(=N4)C3N21", "cell line": "MT-4", "strain": "LAII(IIIB)", "read-out": "EC50", "value": "3.05 µM"}
{"compound": "C[C@@H]1CN(C(=O)c2ccccc2)CCN1C(=O)C(C)(O)c1ccc2ccccc2c1", "cell line": "HeLa", "read by": "luciferase / reporter gene", "read-out": "EC50", "value": "1–5 µM"}
{"compound": "CCN1C[C@H](C)N2C(=C(O)C3C(=O)N4Cc5ccc(F)cc5C(=O)NCCCN=C(N4)C32)C1=O", "cell line": "MT-4", "strain": "LAII(IIIB)", "read-out": "EC50", "value": "1210 µM"}
{"compound": "C#CCOc1cc(NC(=S)c2ccoc2C)ccc1Cl", "cell line": "CEM", "mutations": "RT-Y181C", "read by": "syncytia", "read-out": "EC50", "value": "1.3 µM"}
{"compound": "Nc1nccc2c1ncn2[C@@H]1O[C@H](CO)[C@@H](O)[C@H]1O", "cell line": "PBMC", "read by": "p24", "strain": "18431 unpaired", "read-out": "EC50", "value": "0.0069 µM"}
{"compound": "CC(C)=CCOc1cc(NC(=S)c2ccsc2C)ccc1Cl", "cell line": "CEM", "mutations": "RT-E138K", "read by": "syncytia", "read-out": "EC50", "value": "0.017 µM"}
{"compound": "O=C(C(=O)N1CCN(C(=O)c2ccccc2)CC1)c1cccc2ccccc12", "cell line": "HeLa", "read by": "luciferase / reporter gene", "read-out": "EC50", "value": "<1 µM"}
{"compound": "CCN1C[C@@H](C)N2C(=C(O)C3C(=O)N(Cc4ccc(F)c(Cl)c4)N=C(N4CCN(C)S4(=O)=O)C32)C1=O", "cell line": "MT-4", "strain": "LAII(IIIB)", "read-out": "EC50", "value": "2.04 µM"}
{"compound": "Nc1nccc2c1ncn2[C@@H]1C=C(CO)[C@@H](O)[C@H]1O", "cell line": "PBMC", "read by": "p24", "strain": "A018 PRE-AZT", "read-out": "EC50", "value": "0.0161 µM"}
{"compound": "Cc1cc(C)c(-n2nnnc2SCC(=O)Nc2cccc(Cl)c2C#N)c(C)c1", "cell line": "MT-4", "read by": "p24", "read-out": "EC50", "value": "<10 µM"}
{"compound": "CCO[C@@H]1Cc2cc(C(F)(F)F)ccc2C1N1CCN(C2(C)CCN(C(=O)c3c(C)ncnc3C)CC2)C[C@@H]1C", "cell line": "PBMC", "read by": "p24", "strain": "BaL", "read-out": "EC50", "value": "0.0015 µM"}
{"compound": "O=C(CSc1nnnn1-c1ccccc1Br)Nc1ccccc1[N+](=O)[O-]", "cell line": "MT-4", "read by": "p24", "read-out": "EC95", "value": "<10 µM"}
{"compound": "C/C=C/COc1cc(NC(=S)c2ccoc2C)ccc1Cl", "cell line": "CEM", "read by": "syncytia", "strain": "IIIB", "read-out": "EC50", "value": "0.02 µM"}
{"compound": "CC1CN(C(=O)c2ccccc2)CCN1C(C#N)C(=N)c1ccc2c(O)cccc2n1", "cell line": "HeLa", "read by": "luciferase / reporter gene", "read-out": "EC50", "value": "<1 µM"}
{"compound": "Cc1ccsc1C(=O)Nc1ccc(Cl)c(/C=N/OC(C)(C)C)c1", "cell line": "CEM", "mutations": "RT-V106A", "read by": "syncytia", "read-out": "EC50", "value": "4.5 µM"}
{"compound": "Nc1nc(NC2CC2)c2ncn([C@H]3CO[C@@H](CO)O3)c2n1", "cell line": "MT-2", "read by": "RT activity", "strain": "IIIB Laboratory strain", "read-out": "EC50", "value": "0.14 µM"}
{"compound": "CCOCn1c(Cc2ccccc2)c(C(C)C)c(=O)[nH]c1=O", "mutations": "K103N + Y181C", "read by": "MTT", "strain": "A17", "read-out": "EC50", "value": "56 µM"}
{"compound": "Cc1ccccc1C(=S)Nc1ccc(Cl)c(C(=O)OC(C)C)c1", "cell line": "CEM", "mutations": "RT-L100I", "read by": "syncytia", "read-out": "EC50", "value": "9.6 µM"}
{"compound": "C=CCOCn1c(Cc2cccc(F)c2)c(CC)c(=O)[nH]c1=O", "cell line": "MT-4", "mutations": "K103N + Y181C", "read by": "MTT", "strain": "A17", "read-out": "EC50", "value": "42 µM"}
{"compound": "Nc1nc(NC2CC2)c2ncn([C@H]3C=C[C@@H](CO)C3)c2n1", "cell line": "PBMC", "mutations": "RT-A62V V75I F77C F116Y Q151M", "read by": "p24", "strain": "XM-Q151M", "read-out": "EC50", "value": "<3.1 µM"}
{"compound": "Cc1cc(C)c(-n2nnnc2SCC(=O)Nc2ccc(S(N)(=O)=O)cc2C)c(C)c1", "cell line": "MT-4", "read by": "p24", "read-out": "EC50", "value": "<10 µM"}
{"compound": "C#CCOCn1c(Cc2cccc(F)c2)c(CC)c(=O)[nH]c1=O", "cell line": "MT-4", "read by": "MTT", "strain": "EFV-resistant (K103R V179D P225H)", "read-out": "EC50", "value": ">100 µM"}
{"compound": "CC(=O)c1ccc(NC(=O)CSc2nnnn2-c2c(C)cc(C)cc2C)cc1", "cell line": "MT-4", "read by": "p24", "read-out": "EC50", "value": "<10 µM"}
{"compound": "O=C(C(=O)N1CCN(C(=O)c2ccccc2)CC1)c1cc2ccccc2cn1", "cell line": "HeLa", "read by": "luciferase / reporter gene", "read-out": "EC50", "value": "<1 µM"}
{"compound": "Cc1ccsc1C(=S)Nc1ccc(Cl)c(C(=O)OC(C)C)c1", "cell line": "CEM", "mutations": "RT-E138K", "read by": "syncytia", "read-out": "EC50", "value": "1.6 µM"}
{"compound": "CC1CN(C(=O)c2ccccc2)CCN1C(=O)Cc1cccc2ccccc12", "cell line": "HeLa", "read by": "luciferase / reporter gene", "read-out": "EC50", "value": "1–5 µM"}
{"compound": "C#CCO/N=C/c1cc(NC(=S)c2ccoc2C)ccc1Cl", "cell line": "CEM", "mutations": "RT-V106A", "read by": "syncytia", "read-out": "EC50", "value": "1 µM"}
{"compound": "CCN1C[C@H](C)N2C(=C(O)C3C(=O)N4Cc5ccc(F)cc5OC/C=C\\CCCS(=O)(=O)N(C)C(=N4)C32)C1=O", "cell line": "MT-4", "strain": "LAII(IIIB)", "read-out": "EC50", "value": "3 µM"}
{"compound": "Cn1cccc1C(=S)Nc1ccc(Cl)c(/C=N/OC(C)(C)C)c1", "cell line": "CEM", "read by": "syncytia", "strain": "IIIB", "read-out": "EC50", "value": "0.081 µM"}
{"compound": "CCOCn1c(Cc2cccc(F)c2)c(CC)c(=O)[nH]c1=O", "cell line": "MT-4", "read by": "MTT", "strain": "N119 (Y181C)", "read-out": "EC50", "value": "18 µM"}
{"compound": "Cc1ccsc1C(=O)Nc1ccc(Cl)c(C(=O)OC2CCCCC2)c1", "cell line": "CEM", "mutations": "RT-E138K", "read by": "syncytia", "read-out": "EC50", "value": "16 µM"}
{"compound": "CC1CN(C(=O)c2ccccc2)CCN1C(=O)C(=O)c1ccc2cc(F)ccc2n1", "cell line": "HeLa", "read by": "luciferase / reporter gene", "read-out": "EC50", "value": "<1 µM"}
{"compound": "CC(C)=CCOc1cc(NC(=S)c2ccoc2C)ccc1Cl", "cell line": "CEM", "mutations": "RT-Y181C", "read by": "syncytia", "read-out": "EC50", "value": "0.045 µM"}
{"compound": "Nc1nc(=O)n([C@H]2C=C[C@@H](CO)O2)cc1F", "cell line": "PBMC", "mutations": "RT-K65R L74V M184V Y115F", "read by": "p24", "strain": "XM-ABC-resistant", "read-out": "EC50", "value": "<6.2 µM"}
{"compound": "Cc1occc1C(=O)Nc1ccc(Cl)c(C(=O)OC(C)C2CC2)c1", "cell line": "CEM", "mutations": "RT-L100I", "read by": "syncytia", "read-out": "EC50", "value": "29 µM"}
{"compound": "O=C(C(=O)N1CCN(C(=O)c2ccccc2)CC1)c1ccc2ccccc2n1", "cell line": "HeLa", "read by": "luciferase / reporter gene", "read-out": "EC50", "value": "<1 µM"}
{"compound": "CCN1C2=NN(Cc3ccc(F)cc3OCCCCS1(=O)=O)C(=O)C1C(O)=C3C(=O)N(C(C)C)C[C@H](C)N3C21", "cell line": "MT-4", "strain": "LAII(IIIB)", "read-out": "EC50", "value": "0.7 µM"}
{"compound": "Cc1ccoc1C(=S)Nc1ccc(Cl)c(C(=O)OC(C)C)c1", "cell line": "CEM", "mutations": "RT-L100I", "read by": "syncytia", "read-out": "EC50", "value": "16 µM"}

6 of the rows above, restated:

compound	cell line	mutations	read by	strain	read-out	value
C[C@H]1CN(C2CC2)C(=O)C2=C(O)C3C(=O)N4Cc5ccc(F)cc5OCCCCCN(C)C(=O)C(=N4)C3N21	MT-4	-	-	LAII(IIIB)	EC50	3.05 µM
O=C(C(=O)N1CCN(C(=O)c2ccccc2)CC1)c1cccc2ccccc12	HeLa	-	luciferase / reporter gene	-	EC50	<1 µM
Cc1cc(C)c(-n2nnnc2SCC(=O)Nc2ccc(S(N)(=O)=O)cc2C)c(C)c1	MT-4	-	p24	-	EC50	<10 µM
CC(C)=CCOc1cc(NC(=S)c2ccsc2C)ccc1Cl	CEM	RT-E138K	syncytia	-	EC50	0.017 µM
CC1CN(C(=O)c2ccccc2)CCN1C(C#N)C(=N)c1ccc2c(O)cccc2n1	HeLa	-	luciferase / reporter gene	-	EC50	<1 µM
Cc1cc(C)c(-n2nnnc2SCC(=O)Nc2cccc(Cl)c2C#N)c(C)c1	MT-4	-	p24	-	EC50	<10 µM